Zika virus NS2B-NS3: effect of single substitutions on growth in cell culture

Reference: Ni et al. 2025, doi:10.1038/s41467-025-63602-z.

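Pools of virus carrying all single amino acid changes were selected for growth in Huh-7.5 cells. Deep sequencing gave the change in frequency of each mutant relative to wild type, averaged over three replicate libraries (two for positions 207-308). The study looked for pockets that tolerate few changes, as a guide for inhibitor design.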

Chain scanned (Zika virus MR766; NS2B from position 2 to 131, then the start of NS3):
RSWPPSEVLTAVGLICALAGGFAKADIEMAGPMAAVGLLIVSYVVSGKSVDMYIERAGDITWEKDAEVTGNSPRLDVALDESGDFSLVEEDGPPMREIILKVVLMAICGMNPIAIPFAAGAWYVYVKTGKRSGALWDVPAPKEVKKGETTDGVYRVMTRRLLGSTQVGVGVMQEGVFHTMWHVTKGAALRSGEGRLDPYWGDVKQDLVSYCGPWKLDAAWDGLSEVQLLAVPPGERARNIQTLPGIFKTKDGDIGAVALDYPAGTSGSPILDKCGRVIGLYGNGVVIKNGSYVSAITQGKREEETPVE

Scale: log2 effect, wild type = 0; the lower, the more harmful to the virus.
A change reads original residue, position, new residue.
All changes here are to phenylalanine.
Values above 0 are not proof of better growth: six high scorers were tested one by one, five grew less well than wild type and one about as well.

With G222F the assay gave 0.55. L223F gave 0.08. For S224F the result was -5.63. E225F gave -5.86. For V226F the result was -5.70.

For Q227F the result was -5.06. L228F read -3.97. For L229F the result was -3.35. A230F read -3.97. For V231F the result was -1.91.

For P232F the result was -4.39. P233F read -5.91. G234F gave -4.02. E235F read -5.45. With R236F the assay gave 0.47.

For A237F the result was -1.21. R238F read 1.11. With N239F the assay gave -5.79. I240F read -6.90. With Q241F the assay gave -5.52.

T242F read -4.49. With L243F the assay gave -1.09. With P244F the assay gave -4.41. G245F gave -5.61. For I246F the result was 0.40.

With K248F the assay gave -3.41. T249F read -5.38. With K250F the assay gave -6.17. D251F read -4.44. G252F gave -1.15.

For D253F the result was -5.79. I254F read -6.03. G255F gave -7.00. For A256F the result was -5.88. V257F read -5.25.

A258F gave -5.60. L259F read -4.93. For D260F the result was -4.90. Y261F read -0.46. P262F read -4.45.

A263F read -5.96. For G264F the result was -4.91. T265F gave -3.89. For S266F the result was -5.61. With G267F the assay gave -5.78.

For S268F the result was -4.69. For P269F the result was -4.51. With I270F the assay gave -4.08. For L271F the result was -4.91. D272F gave -4.31.

For K273F the result was -2.81. With C274F the assay gave -0.38. G275F gave -3.99. R276F gave -5.32. With V277F the assay gave -3.96.

For I278F the result was -4.98. For G279F the result was -4.97. L280F gave -5.77. Y281F gave -5.49. G282F gave -4.11.

With N283F the assay gave -5.56. G284F gave -4.74. V285F gave -5.64. V286F read -5.44. For I287F the result was -3.55.

For K288F the result was -5.46. For N289F the result was -5.72. G290F gave -5.51. With S291F the assay gave -5.20. Y292F read 1.15.

V293F gave -4.64. With S294F the assay gave -5.02. A295F read -4.80. With I296F the assay gave -4.64. T297F read -4.88.

For Q298F the result was -3.87. With G299F the assay gave -4.95. K300F read -5.34. R301F gave -1.26. For E302F the result was 0.31.

E303F gave -0.83. E304F read -0.44. For T305F the result was -0.99. With P306F the assay gave -1.50. V307F read -2.37.

E308F gave -0.63.

Positions 1-103, 104-206 and 207-308 were made and measured as separate libraries.
The authors count -1 or higher as tolerated. Position 1 is the last residue of NS2A.